# Measurements published in US20250143290A1, “AGROCHEMICAL COMPOSITION COMPRISING AT LEAST ONE AGROCHEMICAL ACTIVE COMPONENT AND A SOLVENT” (MINAGRO SRL, priority 2022, published 2025).
# Tested on: microorganisms of the inoculum
structure (smiles),measurement,setting,value
"CCCCOCC1CCCO1 (centres unmarked) [n-butyl THF, 2-(butoxymetyl)tetrahydrofuraan]",readily biodegradable,28-day test OECD301F,100%
same,Biodegradation (%),"day 0, OECD301F, 22±1° C., test material 92 mg/L",0.0%
same,Biodegradation (%),day 7,5.6%
same,Biodegradation (%),day 14,77%
same,biodegradability,day 18,91%
same,Biodegradation (%),day 21,96%
same,biodegradability,day 23,100%
same,Biodegradation (%),day 28,105%

# Like-named read-outs stand apart in the source and are kept apart here.
